Results from PMC6215995 (International Journal for Parasitology: Drugs and Drug …, 2018).

Legend:
[1] = tested on: P. falciparum 3D7; test: Antiplasmodial SYBR green assay, CQ-sensitive strain; format: cell-based; details: ratio between MDL50 and IC50, 3D7
Description: Briefly, the plates were centrifuged at 700g for 5 min at room temperature to remove the medium, washed with PBS and incubated for 30 min with lysis buffer solution [2.4228 g TRIS, ultra-pure for 20 mM solution, pH 7.5; 1.8612 g of EDTA 5 mM ultrapure for 5 mM solution; 80 μg Saponin (0.008% w/v); 800 μL of Triton X-100 (0.08% v/v); water Type I] and SYBR green I DNA stain (1:20000). The fluorescence of uninfected erythrocytes was considered as background.
(§1) The half-maximal drug inhibitory concentration (IC50) was estimated by curve fitting using the software from the OriginLab Corporation (USA) and compared to the parasite growth in the drug-free medium.

[2] = tested on: P. falciparum K1; test: Antiplasmodial SYBR green assay, multidrug-resistant strain; format: cell-based; details: ratio between MDL50 and IC50, K1
Description: The freshly sorbitol synchronized ring stages were immediately incubated with the test compounds at various concentrations (from 10 to 0.152 μM or 1.0–0.0152 μM) that were previously solubilized in 0.05% dimethyl sulfoxide (DMSO) (v/v) ([Lambros and Vanderberg, 1979]). […] The antiplasmodial activity of the compounds was measured through SYBR green assay ([Smilkstein et al., 2004]). Briefly, the plates were centrifuged at 700g for 5 min at room temperature to remove the medium, washed with PBS and incubated for 30 min with lysis buffer solution [2.4228 g TRIS, ultra-pure for 20 mM solution, pH 7.5; 1.8612 g of EDTA 5 mM ultrapure for 5 mM solution; 80 μg Saponin (0.008% w/v); 800 μL of Triton X-100 (0.08% v/v); water Type I] and SYBR green I DNA stain (1:20000). The fluorescence of uninfected erythrocytes was considered as background. Fluorescence was measured on fluorimeter (SpectraMax340PC384) at 485/535 nm.
as §1

Row | Substance | Selective index 3D7 [1] | Selective index K1 [2]
1 | N-(prop-2-enyl)-7-chloroquinoline-4-amine [PCQ] | 1079 | 1005
2 | N-(4-(dimethylamino)but-2-enyl)-7-chloro-quinolin-4-amine [DAQ] | 32195 | 29620
